# PubChem BioAssay AID624099 – ICCB-Longwood, 2012
# Assay: 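Host factors E2 relies on to silence an HPV18 LCR reporter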 (primary screen)
# Cell system: human C33A cervical carcinoma cells (HPV-negative) stably expressing BPV1 E2 and an HPV18 LCR luciferase reporter
# Reagents: siRNA pool against human genes, 40 nM
# Time to read-out: 72 h
# Detection: 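Per-well luciferase luminescence, z-scored on each plate against the plate mean and SD with control wells left out, then averaged across three replicate plates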
# Reading the numbers: mean z-score and z-score: higher = stronger reporter signal, weaker E2 silencing
# Active means: 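Hit if mean z-score reaches 2 and two or more of three replicate z-scores also reach 2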
# Here is a random part of about 21,000 reagents. 497 of all reagents (2.4%) count as active. 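Higher z means weaker E2 silencing; only reporter increases were scored, and knock-downs that hurt cell survival may mask genuine repressor factors.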
gene knocked down,PubChem SID,mean z-score,"z-score, replicate A","z-score, replicate B","z-score, replicate C",outcome
IFNA6 (interferon alpha 6),SID134318331,-0.74,-0.61,-0.78,-0.82,inactive
TGFB3 (transforming growth factor beta 3),SID134323508,-0.27,-0.21,-0.25,-0.36,inactive
IL19 (interleukin 19),SID134312886,-0.4,-0.64,-0.32,-0.22,inactive
COL6A1 (collagen type VI alpha 1 chain),SID134315947,-0.49,-0.46,-0.5,-0.51,inactive
GCM2 (GCM transcription factor 2),SID134323607,-0.14,0,-0.22,-0.2,inactive
ACSM2A (acyl-CoA synthetase medium chain family member 2A),SID134325408,2.59,2.42,2.72,2.64,active
AMZ2 (archaelysin family metallopeptidase 2),SID134314814,-0.04,0.12,-0.18,-0.05,inactive
ZNF623 (zinc finger protein 623),SID134327948,-0.13,0.01,-0.03,-0.36,inactive
"TSKU (tsukushi, small leucine rich proteoglycan)",SID134318143,-1.72,-1.64,-1.71,-1.82,inactive
TAF9B (TATA-box binding protein associated factor 9b),SID134321167,1.61,1.4,1.8,1.63,inactive
KCTD11 (potassium channel tetramerization domain containing 11),SID134325589,0.56,0.75,0.62,0.3,inactive
RETSAT (retinol saturase),SID134321981,-0.15,-0.13,0.22,-0.54,inactive
ZSCAN5B (zinc finger and SCAN domain containing 5B),SID134325854,-0.87,-0.71,-0.84,-1.07,inactive
ACACA (acetyl-CoA carboxylase alpha),SID134310515,-0.76,-0.1,-0.9,-1.27,inactive
SCAND2P (SCAN domain containing 2 pseudogene),SID134317288,0.17,0.34,-0.08,0.26,inactive
LOC338756 (retired record),SID134326683,0.43,0.09,0.49,0.71,inactive
FHL1 (four and a half LIM domains 1),SID134319876,-1.34,-1.38,-1.32,-1.31,inactive
ABCC11 (ATP binding cassette subfamily C member 11),SID134310405,-0.18,-0.1,0.04,-0.48,inactive
SQLE (squalene epoxidase),SID134314375,0.59,0.23,-0.09,1.63,inactive
ZDHHC12 (zDHHC palmitoyltransferase 12),SID134320295,0.48,0.5,0.05,0.88,inactive
AMD1 (adenosylmethionine decarboxylase 1),SID134314700,-1.31,-1.43,-1.38,-1.13,inactive
FAM227B (family with sequence similarity 227 member B),SID134320407,0.5,0.65,0.23,0.63,inactive
SLC3A1,SID134312621,-0.88,-1.19,-0.96,-0.48,inactive
SLC1A3,SID134312475,0.41,0.51,0.11,0.62,inactive
"RAN (RAN, member RAS oncogene family)",SID134314926,-0.56,-0.53,-0.55,-0.61,inactive
NUDT18 (nudix hydrolase 18),SID134318614,-0.49,-0.01,-0.41,-1.05,inactive
FAM219A (family with sequence similarity 219 member A),SID134321418,1.35,1.32,1.26,1.47,inactive
MINDY4 (MINDY lysine 48 deubiquitinase 4),SID134326314,-1.37,-1.32,-1.42,-1.39,inactive
TRARG1 (trafficking regulator of GLUT4 (SLC2A4) 1 (gene/pseudogene)),SID134320857,1.51,1.54,1.43,1.56,inactive
OAS1 (2'-5'-oligoadenylate synthetase 1),SID134315690,0.5,0.37,0.68,0.46,inactive
ASPNAT (aspartate N-acetyltransferase),SID134313945,-2.61,-2.48,-2.49,-2.87,inactive
LSM12 (LSM12 homolog),SID134319671,0.51,0.79,0.61,0.14,inactive
ZNF699 (zinc finger protein 699),SID134328972,0.53,0.75,0.7,0.13,inactive
FFAR1 (free fatty acid receptor 1),SID134311013,-0.54,-0.74,-0.52,-0.36,inactive
SRGAP1 (SLIT-ROBO Rho GTPase activating protein 1),SID134326702,-0.51,-0.6,-0.56,-0.38,inactive
GYS2 (glycogen synthase 2),SID134316963,0.32,-0.23,0.33,0.87,inactive
TLR6 (toll like receptor 6),SID56478986,0.88,0.92,0.9,0.83,inactive
EOMES (eomesodermin),SID134321417,1.34,1.48,1.42,1.12,inactive
RAB5IF (RAB5 interacting factor),SID134324260,-0.89,-1.04,-0.97,-0.67,inactive

Records listed so far whose target name starts with A or a (6):
gene knocked down,PubChem SID,mean z-score,"z-score, replicate A","z-score, replicate B","z-score, replicate C",outcome
ACSM2A (acyl-CoA synthetase medium chain family member 2A),SID134325408,2.59,2.42,2.72,2.64,active
AMZ2 (archaelysin family metallopeptidase 2),SID134314814,-0.04,0.12,-0.18,-0.05,inactive
ACACA (acetyl-CoA carboxylase alpha),SID134310515,-0.76,-0.1,-0.9,-1.27,inactive
ABCC11 (ATP binding cassette subfamily C member 11),SID134310405,-0.18,-0.1,0.04,-0.48,inactive
AMD1 (adenosylmethionine decarboxylase 1),SID134314700,-1.31,-1.43,-1.38,-1.13,inactive
ASPNAT (aspartate N-acetyltransferase),SID134313945,-2.61,-2.48,-2.49,-2.87,inactive
